PubChem BioAssay AID1259414 – Drosophila RNAi Screening Center | 2018

Assay: 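Host factors increasing or decreasing Wolbachia levels in cultured fly cells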 (primary screen)
Cells: Drosophila JW18 cells infected with Wolbachia
Reagent: long dsRNA against Drosophila genes, 0.25 µg dsRNA per well of a 384-well plate
Timing: 5 days
Conditions: cells persistently infected with Wolbachia before knock-down; no added drug
Detection: 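Imaged fluorescence in situ signal for Wolbachia 23S rRNA per DAPI-counted host cell, given as a robust z-score within each plate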
Scale: Wolbachia per cell robust z: higher = more Wolbachia per host cell than the plate typical
Rule for the call: 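Active if absolute robust z reaches 1.5 in two or more of three replicates, leaving out multi- or no-target dsRNAs, genes unexpressed in JW18 and A1 wells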
In all, the deposit lists about 24,000 reagents; this is a random part of those that have a named target and a result. Of all reagents, about 1,210 (5%) got an active call. 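Inactive calls also include excluded dsRNAs with several or no targets, genes unexpressed in JW18, and well A1, regardless of score.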 Unmarked entries are inactive. Names joined by + are all predicted targets of the reagent.

The first 2 entries, to show the layout:
Gene | amplicon | Wolbachia per cell robust z, rep 1 | Wolbachia per cell robust z, rep 2 | Wolbachia per cell robust z, rep 3
mRpL55 | DRSC14764 | 1.36 | 0.697 | 1.13
Arl4 | DRSC17156 | -2.34 | 0.207 | -0.118

The list itself, from the first entry:
Gene | amplicon | Wolbachia per cell robust z, rep 1 | Wolbachia per cell robust z, rep 2 | Wolbachia per cell robust z, rep 3
mRpL55 | DRSC14764 | 1.36 | 0.697 | 1.13
Arl4 | DRSC17156 | -2.34 | 0.207 | -0.118
CG5381 | DRSC02852 | 0.923 (active) | -2.26 | -4.99
pyr | DRSC24993 | 0.105 | 0.155 | -0.3
Prosbeta1 | DRSC07159 | 2.94 (active) | 0.965 | 5.67
Men | DRSC12924 | -1.26 | -2.28 | -3.11
Men | DRSC16738 | 0.353 | -0.538 | 0.962
Men | DRSC22694 | -2.27 | -0.227 | -0.0295
Men | DRSC39137 | -0.0992 | 0.182 | 1.35
l(2)k05819 | DRSC00826 | 0.424 (active) | -2.02 | -1.51
dco | DRSC16929 | 0.901 | -0.345 | -1.16
dco | DRSC29211 | 0.231 | 0.725 | 0.263
CG9581 | DRSC20695 | -3.73 (active) | -1 | -3.63
CG9581 | DRSC22247 | -0.07 | 0.829 | 0.237
CG3638 | DRSC18533 | -1.82 | -1.25 | -0.171
CG3638 | DRSC25349 | 0.418 | 0.7 | 3.23
Rad17 | DRSC16811 | 0.484 | 1.01 | 0.588
CG14684 | DRSC14907 | 0.176 | -0.00718 | 0.243
Dso1 | DRSC21815 | -0.86 | -1.45 | -1.59
Dso1 | DRSC29771 | -0.794 | -0.915 | -5.55
CG15130 | DRSC02430 | -0.302 | -0.753 | 1.99
CG12496 | DRSC18602 | 0.654 | 0.724 | 0.192
CG12496 | DRSC28576 | 0.149 | -0.032 | -0.971
CG13332 | DRSC06367 | -1.09 | -0.301 | -1.83
lncRNA:sphinx | DRSC17199 | 1.09 | 0.848 | -0.577
Tsp42Ef | DRSC06191 | -0.537 | 0.606 | 0.761
CG9582 | DRSC03267 | 0.528 | 2.32 | -0.0182
Nup107 | DRSC01999 | 0.393 | 0.0389 | 0.603
ND-42 | DRSC16754 | 0.506 | 0.931 | 0.53
ND-42 | DRSC26843 | 0.455 | -0.129 | -0.302
ND-42 | DRSC41561 | 0.437 | -1.63 | -1.08
Skp2 + CG14645 | DRSC12231 | 0.585 | 0.00534 | 0.146
CG7551 | DRSC10876 | 1.04 | 0.0121 | 0.0269
CR18166 + CG3176 + CG32817 | DRSC28432 | -1.13 | 0.385 | -1.33
or | DRSC04329 | -0.521 | 0.745 | -0.846
or | DRSC29241 | -0.615 | 0.139 | 0.142
CG5961 | DRSC15927 | 0.0509 | -0.706 | 0.897
CG5961 | DRSC27152 | 1.16 | 0.0236 | -0.00262
CG10752 | DRSC09799 | -0.678 | 0.726 | 0.847
CG12490 | DRSC04123 | -1.19 | 0.618 | -1.64
CG30289 | DRSC03870 | -1.13 | -0.654 | -0.168
CG8483 | DRSC16430 | -0.185 | -0.27 | -0.251
CG17726 | DRSC15255 | 0.744 | 0.101 | -1.13
Cpr23B | DRSC23504 | 0.781 | 1.93 | -0.31
Osi9 | DRSC12278 | 0.292 | -0.0742 | -0.541
Osi9 | DRSC28928 | -0.0412 | -0.0599 | -0.477
